# Results published in patent US20230293409A1, “Compositions Comprising Antimicrobials and (Bio)-Alkanediols for Skin Protection” (Symrise AG, priority 2020, published 2023).
# Test system: Staphylococcus aureus
# Test: Minimum Inhibitory Concentration (MIC) test and Kull synergy index
# Type: cell-based
# Conditions: Table 3, Component B alone
substance,measurement,value
Propanediol Caprylate,MIC Component B in ppm,500 ppm
